System: S. aureus biofilm formation
Assay: Biofilm formation assay (crystal violet, OD 595 nm)
Format: cell-based, Staphylococcus aureus
Details: enzyme added at 0, 0.5, 1, 2 and 5 μM, pH 6, 48 hours, 30° C.
Method: • The effect of recombinant autolysins on the S. aureus biofilm formation was performed as described [Merritt et al. 2011]. In brief, saturated culture of S. aureus grown overnight in BHI medium was diluted 1:100 in buffered BHI medium (supplemented with 0.1 M phosphate buffer pH 6.0 containing 0, 0.5, 1, 2 and 5 μM concentration of individual enzyme. 100 μl of each diluted culture was pipetted in 96-well plate (TPP). The plates were covered and incubated in a humidified incubator at 30° C. After 48 hours, the media was removed and the plates were three times washed with water. After the last washing step all remaining liquid was removed and 125 μl of 0.1% crystal violet was added to each well to dye the attached cells. After 10 minutes of incubation at the room temperature, the solution of crystal violet was removed and plates were washed several times with water until all unbound dye was removed. After the plates were completely dried at room temperature, the dyed biofilms were dissolved in 200 μl of 30% acetic acid. After 20 minutes of incubation at room temperature, the plates were briefly mixed and 100 μl of the crystal violet/acetic acid solution was transferred to a fresh 96 well micro-titer plate and the optical density of the samples was measured ad 595 nm. All experiments were performed in triplicates with AtlE, AtlA A138E mutant, and glu-AtlA domain assayed at pH 6. 6. […]

B1: AtlE: recombinant glucosaminidase domain of Autolysin E of S. aureus Mu50, encoded by SAV2307 (protein)
chain: SAAANDVNYSFDEAVSMQQGKGIVQTKEEDGKFVEANNNEIAKAMTISHKDNDMKYMDITEKVPMSESEVNQLLKGKGILENRGKVFLEAQEKYEVNVIYLVSHALVETGNGKSELAKGIKDGKKRYYNFFGIGAFDSSAVRSGKSYAEKEQWTSPDKAIIGGAKFIRNEYFENNQLNLYQMRWNPENPAQHQYASDIRWADKIAKLMDKSYKQFGIKKDDIRQTYYK
For B1, the “effect on biofilm formation” value was “increased the formation of biofilms in a concentration dependent manner”.
